Experiments:
[1] = target: parasite TGR (thioredoxin reductase activity) (Schistosoma mansoni, UniProt Q962Y6); assay: Thioredoxin reductase activity of TGR in homogenates of treated cultured worms; conditions: 50 μM, 18 hrs treatment of cultured worms
[2] = target: parasite TGR (GSH reductase activity) (Schistosoma mansoni, UniProt Q962Y6); assay: Glutathione reductase activity of TGR in homogenates of treated cultured worms; conditions: 50 μM, 18 hrs treatment of cultured worms
adult S. mansoni worms = assay: Inhibitor studies on cultured adult worms (motility, mortality); conditions: freshly cultured S. mansoni worms

Substance: (N-benzothiazol-2-yl-phenyl-phosphoryl)-1,3-thiazol-2-amine
- reduction of thioredoxin reductase activity of parasite TGR vs carrier control [1]: 69%
- reduction of GSH reductase activity of parasite TGR vs carrier control [2]: 59%
- time to kill the worms (adult S. mansoni worms; 25 μM): 96 h
- time to kill the worms (adult S. mansoni worms; 50 μM): 24 h

From US7910574B2, “Treatments for the control of schistosomiasis” (Illinois State University, priority 2007, dated 2011)
